Measurements taken from patent US20260209317A1 (US Dept. of Health and Human Services, published 2026).

Key:
[1] = molecular target: T1, SARS-CoV-2 beta (B.1.351) RBD protein (SARS-CoV-2); test: ELISA, plate coated with Beta RBD
T1 construct: domain: RBD

[2] = molecular target: SARS-CoV-2 beta (B.1.351) S-2P spike protein (SARS-CoV-2); test: ELISA, plate coated with Beta S-2P
[3] = molecular target: T2, SARS-CoV-2 delta (B.1.617.2) RBD protein (SARS-CoV-2); test: ELISA, plate coated with Delta RBD
T2 construct: domain: RBD

[4] = molecular target: SARS-CoV-2 delta (B.1.617.2) S-2P spike protein (SARS-CoV-2); test: ELISA, plate coated with Delta S-2P

B1: B2-269.1 (antibody, V domains shown)
VH: EVQLVESGGGLVQPGGSLRLSCAASGITVSSNYMSWVRQPPGKGLDWVSLIFSGGSTYYADSVKGRFTISRDNSKNTLYLQMNSLRAEDTAVYYCARVGVAVAGTDYDIWGQGTMVTVSS
VL: DIQMTQSPSSLSASVGDRVTITCQASQDINKYLNWYQQKPGKAPKLLIYDASNLETGVPSRFSGSGSGTDFTFTISSLQPEDIATYYCLHYENLPLSFGGGTKVEIK
EC50 (read off the curve) [1]: ~2 ng/mL | EC50 (read off the curve) [2]: ~2 ng/mL | EC50 (read off the curve) [3]: ~7 ng/mL | EC50 (read off the curve) [4]: ~4 ng/mL
